Results of unrelated studies side by side (data: NIAID ChemDB).

Common to all: growth or infection tests; organism: HIV-1

ECn is the concentration giving n% inhibition of infection, replication or growth.

smiles | cells | method | mutations | read-out | strain or isolate | result
Nc1nc(=O)n([C@H]2CO[C@@H](CO)S2)cc1F | CBMC | RT activity | - | EC50 | 4246 | 0.3 µM
C[C@H](NC(=O)[C@H](CCCN=C(N)N)NC[C@H](CCCN=C(N)N)NC(=O)c1ccc(F)cc1)c1cccc2ccccc12 | MT-4 | cytopathic effect | - | EC50 | - | 1.7 µM
Cc1cccc(C)c1OCC(=O)N[C@@H](Cc1ccccc1)[C@@H](O)C[C@H](Cc1ccccc1)NC(=O)[C@H](C(C)C)N1CCCNC1=O | PBMC | p24 / luminescence | - | EC50 | BaL | 0.017 µM
Cc1ccnc2c1NC(=O)c1cccnc1N2C1CC1 | CEMx174 + CEM | XTT | - | EC50 | IIIB | 0.1 µM
CC(C)(C)C(=O)SCCOC(=O)P(=O)(O)OCCSC(=O)C(C)(C)C | MT-4 | cytopathic effect / MTT | - | EC50 | IIIB | 44 µM
Cc1cn([C@H]2C[C@H](N=[N+]=[N-])[C@@H](CO)O2)c(=O)[nH]c1=O | MM + M/M | antigen | - | EC50 | BaL | 0.005 µM
CCCCCCCCOC(=O)P(=O)(OC[C@H]1O[C@@H](n2cc(C)c(=O)[nH]c2=O)C[C@@H]1N=[N+]=[N-])OC[C@H]1O[C@@H](n2cc(C)c(=O)[nH]c2=O)C[C@@H]1N=[N+]=[N-] | CEM + CEM-SS | RT activity | - | EC50 | LAI | 0.003 µM
Cc1ccnc2c1NC(=O)c1cccnc1N2C1CC1 | CEM + CEM-SS | cytopathic effect / XTT | RT-L100I | EC50 | NL4-3 | 0.1 µM
CCCN(C(=O)OCc1cccc(C(N)=O)c1)C1CCN(CC[C@H](CN(C)S(=O)(=O)c2ccccc2)c2cccc(Cl)c2)CC1 | PBMC | p24 | - | EC50 | YU2 | <3 µM
Nc1ncnc2c1ncn2[C@H]1CC[C@@H](CO)O1 | CEM | syncytia | - | EC50 | IIIB | 3.7 µM
C[C@H](N[C@@H](CCCN=C(N)N)C(=O)N[C@@H](CCCN=C(N)N)C(=O)c1ccc(F)cc1)c1cccc2ccccc12 | MT-4 | cytopathic effect | - | EC50 | - | 61 µM
Cc1cn([C@H]2C[C@H](N=[N+]=[N-])[C@@H](CO)O2)c(=O)[nH]c1=O | CEM + CEM-SS | XTT | RT-P236L | EC50 | HEPT-resistant (RT P236L) | 0.01 µM
O=C1N(Cc2ccc(CO)cc2)[C@H](Cc2ccccc2)[C@H](O)[C@@H](O)[C@@H](Cc2ccccc2)N1Cc1ccc(CO)cc1 | MT-4 | p24 | PR-L10R L63P | EC95 | NL4-3 | 0.2 µM
COC(=O)[C@H](C)NP(=O)(OC[C@@H]1CC[C@H](n2ccc(N)nc2=O)O1)Oc1ccccc1 | CEM | syncytia | - | EC50 | IIIB | 0.6 µM
CCCc1cc(=O)oc2c3c(c4c(c12)OC(C)(C)C=C4)O[C@H](C)[C@@H](C)[C@@H]3O | CEM + CEM-SS | XTT | RT-T139I | EC50 | Calanolide A-resistant (RT T139I) | >27 µM
Nc1nc2c(ncn2[C@H]2CO[C@@H](CO)O2)c(=O)[nH]1 | H9 | - | - | EC50 | IIIB | 0.06 µM
C=CCN(C(=O)OCc1ccccc1)C1CCN(CCC(CN(C)S(=O)(=O)c2ccccc2)c2ccccc2)CC1 | PBMC | p24 | - | EC50 | YU2 | <0.8 µM
C[C@H](NC(=O)[C@H](CCCN=C(N)N)NC(=O)[C@@H](N)CCCN=C(N)N)c1cccc2ccccc12 | MT-4 | cytopathic effect | - | EC50 | - | >100 µM
Cc1cn([C@H]2C=C[C@@H](CO)O2)c(=O)[nH]c1=O | MM + M/M | antigen | - | EC90 | BaL | 0.78 µM
CCOC(=O)P(=O)(OCc1ccc(Cl)cc1)OCc1ccc(Cl)cc1 | MT-4 | cytopathic effect / MTT | - | EC50 | IIIB | >10 µM
Nc1ccn([C@H]2CC[C@@H](CO)O2)c(=O)n1 | CBMC | RT activity | - | EC50 | HXB2D | 0.041 µM
Cc1cc(C#N)cc(C)c1Oc1nc(Nc2ccc(C#N)cc2)nc(N)c1Br | MT-4 | MTT | E138K | EC50 | IIIB | 0.014 µM
Cc1cn([C@H]2C[C@H](N=[N+]=[N-])[C@@H](CO)O2)c(=O)[nH]c1=O | CBMC | RT activity | RT-M41L K70R T215Y | EC50 | 4242 (RT-M41L K70R T215Y) | 0.007 µM
CC(C)(C)C(=O)SCCOC(=O)P(=O)(OCCSC(=O)C(C)(C)C)OCCSC(=O)C(C)(C)C | CEM + CEM-SS | RT activity | - | EC50 | LAI | >10 µM
C[C@H](NC[C@H](CCCN=C(N)N)NC(=O)[C@H](CCCN=C(N)N)NC(=O)[C@@H](N)Cc1ccc(O)cc1)c1cccc2ccccc12 | MT-4 | cytopathic effect | - | EC50 | - | 22 µM
COC(=O)N[C@H](C(=O)N[C@@H](Cc1ccccc1)[C@@H](O)CN(Cc1ccc(-c2ccccn2)cc1)NC(=O)[C@@H](NC(=O)OC)C(C)(C)C)C(C)(C)C | PBMC | p24 / luminescence | L63P | EC50 | ERS104pre | 0.0025 µM
Nc1ccn([C@H]2CO[C@@H](CO)S2)c(=O)n1 | MT-4 | RT activity | - | EC50 | HXB2D | 3.5 µM
CCCc1cc(=O)oc2c3c(c4c(c12)OC(C)(C)C=C4)O[C@@H](C)[C@H](C)[C@@H]3O | CEM + CEM-SS | cytopathic effect / XTT | RT-M184V | EC50 | 3TC-resistant (RT M184V) | 1.3 µM
CCCN(C(=O)OCc1ccc(C(N)=O)cc1)C1CCN(CC[C@H](CN(C)S(=O)(=O)c2ccccc2)c2cccc(Cl)c2)CC1 | PBMC | p24 | - | EC50 | YU2 | <0.4 µM
CC(C)(C)NC(=O)[C@@H]1C[C@@H]2CCCC[C@@H]2CN1C[C@@H](O)[C@H](Cc1ccccc1)NC(=O)[C@H](CC(N)=O)NC(=O)c1ccc2ccccc2n1 | MT-4 | p24 | PR-L10R M46I L63P | EC50 | NL4-3 | <0.025 µM
CCCN(C(=O)NCc1ccccc1)C1CCN(CCC(CN(C)S(=O)(=O)c2ccccc2)c2ccccc2)CC1 | PBMC | p24 | - | EC50 | YU2 | <3 µM
COC(=O)[C@H](C)NP(=O)(OC[C@@H]1C=C[C@H](n2cc(C)c(=O)[nH]c2=O)O1)Oc1ccccc1 | MM + M/M | antigen | - | EC90 | BaL | 0.03 µM
CCN(C(=O)OCc1ccccc1)C1CCN(CCC(CN(C)S(=O)(=O)c2ccccc2)c2ccccc2)CC1 | PBMC | p24 | - | EC50 | YU2 | <13 µM
Cc1cn([C@H]2C[C@H](N=[N+]=[N-])[C@@H](CO)O2)c(=O)[nH]c1=O | CEM + CEM-SS | cytopathic effect / XTT | RT-A98G | EC50 | NL4-3 | 0.01 µM

The first 5 rows once more:

smiles	cells	method	mutations	read-out	strain or isolate	result
Nc1nc(=O)n([C@H]2CO[C@@H](CO)S2)cc1F	CBMC	RT activity	-	EC50	4246	0.3 µM
C[C@H](NC(=O)[C@H](CCCN=C(N)N)NC[C@H](CCCN=C(N)N)NC(=O)c1ccc(F)cc1)c1cccc2ccccc12	MT-4	cytopathic effect	-	EC50	-	1.7 µM
Cc1cccc(C)c1OCC(=O)N[C@@H](Cc1ccccc1)[C@@H](O)C[C@H](Cc1ccccc1)NC(=O)[C@H](C(C)C)N1CCCNC1=O	PBMC	p24 / luminescence	-	EC50	BaL	0.017 µM
Cc1ccnc2c1NC(=O)c1cccnc1N2C1CC1	CEMx174 + CEM	XTT	-	EC50	IIIB	0.1 µM
CC(C)(C)C(=O)SCCOC(=O)P(=O)(O)OCCSC(=O)C(C)(C)C	MT-4	cytopathic effect / MTT	-	EC50	IIIB	44 µM

Blank or dashed fields: not listed here. Rows are shuffled and stem from different studies.